Measured data: PubChem BioAssay AID1259414 (Drosophila RNAi Screening Center, 2018)

Screen: 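Host factors increasing or decreasing Wolbachia levels in cultured fly cells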 (primary screen)
System: Drosophila JW18 cells infected with Wolbachia
Reagent: long dsRNA against Drosophila genes, 0.25 µg dsRNA per well of a 384-well plate
Timing: 5 days
Challenge: cells persistently infected with Wolbachia before knock-down; no added drug
Measured: 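Imaged fluorescence in situ signal for Wolbachia 23S rRNA per DAPI-counted host cell, given as a robust z-score within each plate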
Direction: Wolbachia per cell robust z: higher = more Wolbachia per host cell than the plate typical
Hit rule: 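Hit when robust z is 1.5 or more, or -1.5 or less, in at least two of three replicates; excludes dsRNAs with several or no targets, genes not expressed in JW18 and well A1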
The deposit covers about 24,000 reagents; shown is an unselected part of those with a known target gene and a result. Of all reagents, about 1,210 (5%) got an active call. 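Inactive calls also include excluded dsRNAs with several or no targets, genes unexpressed in JW18, and well A1, regardless of score.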

Target gene | PubChem SID | Wolbachia per cell robust z, rep 1 | Wolbachia per cell robust z, rep 2 | Wolbachia per cell robust z, rep 3 | call
5-HT1A (GeneID 37196) | SID104184822 | 0.567 | -2.5 | -0.197 | inactive
5-HT1A (GeneID 37196) | SID104204948 | 1.37 | 0.266 | 0.672 | inactive
Alp2 (GeneID 37539) | SID104184146 | -0.49 | 0.0328 | 0.53 | inactive
Alp2 (GeneID 37539) | SID104205018 | -1.26 | -0.0593 | -0.331 | inactive
Alp2 (GeneID 37539) | SID104219114 | -3.06 | -2.62 | -3.03 | inactive
Vha36-3 (GeneID 31235) | SID104198407 | 1.5 | -0.29 | 0.822 | inactive
Vha36-3 (GeneID 31235) | SID104207180 | 0.0323 | 0.941 | -0.0136 | inactive
Act87E (GeneID 48632) | SID104202001 | 0.558 | 0.513 | -0.354 | inactive
Act87E (GeneID 48632) | SID104202963 | 0.0687 | 0.351 | -0.375 | inactive
Snrk (GeneID 36579) | SID104186984 | 0.163 | 0.389 | 0.194 | inactive
Snrk (GeneID 36579) | SID104202689 | -1.16 | 0.331 | -0.658 | inactive
Herp (GeneID 34065) | SID104182186 | 0.53 | 1.95 | 1.08 | inactive
Herp (GeneID 34065) | SID104205435 | -4.06 | -0.591 | -11.4 | active
Spn100A (GeneID 43642) | SID104194388 | -0.486 | -0.00785 | -0.217 | inactive
Ugt50B3 (GeneID 246614) | SID104184570 | -1.7 | 0.307 | -1.68 | inactive
Ugt50B3 (GeneID 246614) | SID104201172 | -0.808 | 0.132 | -1.33 | inactive
kuz (GeneID 34772) | SID104183347 | 1.15 | 1.24 | 0.411 | inactive
kuz (GeneID 34772) | SID104218444 | 0.235 | 1.16 | 0.751 | inactive
CG15024 (GeneID 50172) | SID104188270 | 0.607 | 1.16 | 0.836 | inactive
atms (GeneID 40593) | SID104192102 | 0.294 | 0.259 | 0.914 | inactive
atms (GeneID 40593) | SID104206046 | 0.732 | 0.569 | 1.11 | inactive
Cp36 (GeneID 31787) | SID104198244 | -0.352 | -0.497 | 0.839 | inactive
Cp36 (GeneID 31787) | SID104205788 | -4.55 | -1.93 | -0.0778 | inactive
Ip259 (GeneID 34419) | SID104183144 | 0.696 | 0.826 | 1.57 | inactive
Cyp4e3 (GeneID 34291) | SID104183098 | -0.172 | 1.16 | -0.0429 | inactive
Cyp4e3 (GeneID 34291) | SID104204969 | 1.12 | 0.618 | 1.97 | inactive
sncRNA:158 (GeneID 3772042) | SID104215481 | 0.704 | -1.09 | -1.27 | inactive
trsn (GeneID 36110) | SID104185870 | 0.273 | -0.177 | 0.132 | inactive

An excerpt from above, reduced to “Wolbachia per cell robust z, rep 2”:
Alp2 (GeneID 37539) [SID104205018] = -0.0593
Alp2 (GeneID 37539) [SID104219114] = -2.62
Vha36-3 (GeneID 31235) [SID104198407] = -0.29
